From publication PMC2949506

Protein sequences, listed by entry. Tags and fused reporters are not part of them. Lines headed by an entry give the natural chain unless they say otherwise; changes in a name come on top.
UniProt Q15370: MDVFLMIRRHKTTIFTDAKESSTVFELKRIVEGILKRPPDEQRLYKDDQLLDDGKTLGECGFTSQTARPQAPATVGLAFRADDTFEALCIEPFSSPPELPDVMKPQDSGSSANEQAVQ

Target: Elongin BC complex (human Elongin B with Elongin C residues 17-122) (human) (UniProt Q15370)
Test: HDX-MS

HIV-1 Vif (HXB2) residues 135-158 peptide with 6xHis tag
Kd: 0.23 µM
